Assay results as given in article PMC11826091.
For some of these results: Construct, isoform or probe ends are uncertain for at least one entry.

How the values were obtained:
[1] = tested on: MtvA (Pseudomonas aeruginosa PAD8 (plasmid pPAD8)); test: EMSA; details: pH 8.0, 25 min at room temperature, recombinant protein, residues 1-82, protein details: His (pET28a), probe letters rebuilt from the primers and the genome
[2] = tested on: MtvA + MtvT; test: EMSA; details: pH 8.0, 25 min at room temperature, recombinant protein, probe letters rebuilt from the primers and the genome

Sequence	binding result [1]	binding result [2]
ACGCCCTCTTCCTTGTTTACCCTGTATTCGAAAGTTGGAATGTTCCAATGACAAGACGTTATCTGCTTTCGGCCAAGAGATTTGGCTCCTTGCATATTATAAGAACCCCAACACTTCCCGTCGTACCTTGAATGCCCCGCCTAGCGGAGAGGCATGAATACGCTCCGTTTTATTGATTTTCAAAGCCATGAGCACGGAGTCGATTTTATAATAATCAGGATTGTCCGACGTGCGCTGATTCGCAGAGCGAGTCGGCTTCCGCCAATTAATCCAGCCTTCTTTAGAAGCGGAACAAAAGTACCAGTTTTATTATTCGAGGCCTTCCCTGAAAACGAACGAGACTTGCACTTCTTTAATCTCCATACGTACTTTCCGAAACAGCAGGCAATGTATCAATCGTTGCCAGATCTTTCTTCCGGGCGAGCGGCCGTACAATTCGGAAA (double strand) [P-exsA]	binds	binds
TATGGATCCCCTCCGAGAAAGGCGGCCAGGAATAGGCAAAGCAGCAGCGATTTTCTCATCTGACTGTCCTTTAGCTGTGCTTGTTGGTGGGGGGCGATGATGGGGAGGGGAGGGTGAGCTCCGGCTCATGTGTGTCTGCAGCATCCAGGCGGCCTAGCAGTTTGGTAGACAACTGCCGCCATGCCTGGCTGCCCTCGCTGCGGCCAGCGGACGACTTGCTTGCTTCGGATTCGGTTGGAGGGGGTATTGGCTCAACCCGCTCGCTTCGAATGTGTTTGACGACTCTTAGCACGCTGATCACCAGTGTTGACGCTAAAGCGTTTAGTCTTGATACTTGCAAAAGATAACACAACGAAAGTCCGAGCCATAAACCACTCGAGTAA (double strand) [P-dotA]	binds	binds
